In series [1] the test system is calf thymus DNA (ctDNA). Description: Competitive EthBr-DNA fluorescence binding experiment. The settings on record: Fluorescent titration, pH 7.4. Here is the method:
The competitive DNA-silver(I) complex binding experiments were carried out in the buffer (pH 7.4) by maintaining [DNA]/[EthBr] = 5, while increasing the concentration of the complexes 1–3. Each sample solution was scanned in the wavelength range 525–800 nm with an excitation wavelength of 520 nm. The Stern-Volmer constants (Ksv), which represent a measure of the binding propensity of the complexes to DNA, were calculated using the following equation [29]:(2) F0/F=1+Kqτ0complex=1+Ksvcomplex, where F0 and F are the fluorescence intensities in the absence and presence of the complexes, respectively. Kq stands for bimolecular quenching constant and τ0 (10^−8 s) is the lifetime of the fluorophore in the absence of the quencher. The binding constants (KA) and apparent binding sites (n) can be calculated by using the following equation [28]:(3) logF0−F/F=log KA+n logcomplex, where KA stands for the binding constant of the silver(I) complex with ctDNA and n stands for the apparent number of binding sites.

Series [2] concerns calf thymus DNA (ctDNA). Description: UV-Vis spectrophotometric titration with ctDNA. The format is binding. The settings on record: ΔG = -RTlnKb.

Consider `O=[N+]([O-])[O-].[Ag+].c1cc(CCc2ccncc2)ccn1` [Complex 1, {[Ag(bpa)]NO3}n], for which the “n (apparent number of binding sites)” value in the series on calf thymus DNA (ctDNA) [1] is given as 1.40. Moreover, in the series on calf thymus DNA (ctDNA) [2], the “ΔG^o” value was -7.9 kcal/mol.
On the same counts, the results for `O.O=S(=O)([O-])C(F)(F)F.[Ag+].c1cc(CCc2ccncc2)ccn1.c1cc(CCc2ccncc2)ccn1` [Complex 2, {[Ag(bpa)2]CF3SO3^.H2O}n] are 0.80 and -7.7 kcal/mol.
With `C(=C\c1ccncc1)/c1ccncc1.O=S(=O)([O-])C(F)(F)F.[Ag+]` [Complex 3, {[Ag(bpe)]CF3SO3}n], the “n (apparent number of binding sites)” value in the series with calf thymus DNA (ctDNA) [1] is 0.72. For the same compound, the “ΔG^o” value in the series with calf thymus DNA (ctDNA) [2] is -7.8 kcal/mol.

These data come from PMC7178511, “Antimicrobial Activity and DNA/BSA Binding Affinity of Polynuclear Silver(I) Complexes with 1,2-Bis(4-pyridyl)ethane/ethene as Bridging Ligands” (Bioinorganic Chemistry and Applications, 2020).
